Measured values from several laboratories, pooled; numbers as filed in NIAID ChemDB.

Common to all: tests in culture; species: Herpes simplex virus 1

Neighbouring rows are from separate reports.

Cc1c(NC(=O)c2ccc3c(c2)OCO3)ccc2nc(NC(C)(C)C(=O)N(C)CCc3ccccn3)oc(=O)c12 ; cells: VERO ; measure: EC90 ; read by: plaque count ; value: 12.5 µM
C/C=C/c1cn([C@H]2C[C@H](O)[C@@H](CO)O2)c(=O)[nH]c1=O ; cells: PRK ; strain: KOS ; measure: EC99 ; read by: virus yield ; value: 0.15 µg/mL
O=C1C=CN(COCCO)S(=O)(=O)N1COCCO ; cells: E6SM ; strain: KOS ; measure: EC50 ; value: >400 µg/mL
O=c1[nH]c(=O)n([C@H]2C[C@H](O)[C@@H](CO)O2)cc1I ; strain: JAH ; measure: MIC ; value: 1.1 µg/mL
C/C=C/c1cn([C@H]2C[C@H](O)[C@@H](CO)O2)c(=O)[nH]c1=O ; tested at: 10 µM ; cells: VERO ; strain: C42 ; measure: inhibition ; read by: plaque count ; value: 91%
Cc1c(NC(=O)OC(C)(C)C)ccc2nc(N3CCC[C@H]3C(=O)NCCc3ccccn3)oc(=O)c12 ; cells: VERO ; measure: EC90 ; read by: plaque count ; value: >12.5 µM
CCOC(=O)C1=CN(COCCOC(C)=O)S(=O)(=O)N=C1N ; cells: E6SM ; strain: VMW1837 (TK-) ; measure: EC50 ; value: >400 µg/mL
C/C=C/c1cn([C@@H]2O[C@H](CO)[C@@H](O)[C@@H]2O)c(=O)[nH]c1=O ; tested at: 250 µM ; cells: VERO ; strain: TK- ; measure: inhibition ; read by: plaque count ; value: 8%
CC(=O)OCCOCN1C(=O)C=CN(COCCO)S1(=O)=O ; cells: E6SM ; strain: VMW1837 (TK-) ; measure: EC50 ; value: >400 µg/mL
Cc1c(NC(=O)CCNC(=O)OC(C)(C)C)ccc2nc(NCC(=O)N(C)CCc3ccccn3)oc(=O)c12 ; cells: VERO ; measure: EC90 ; read by: plaque count ; value: >20 µM
CC(=O)OCCOCN1C=CC(=O)NS1(=O)=O ; cells: E6SM ; strain: KOS ; measure: EC50 ; value: >400 µg/mL
Nc1nc2c(ncn2COC(CO)CO)c(=O)[nH]1 ; strain: 95-2723 ; measure: EC50 ; read by: PCR ; value: >50 µM
Cc1c(NC(=O)OC(C)(C)C)ccc2nc(NC(C)(C)C(=O)NCCc3ccccn3)oc(=O)c12 ; cells: VERO ; measure: EC90 ; read by: plaque count ; value: >25 µM
CC(=O)OCCOCN1C(C)=CC(N)=[N+](c2ccccc2)S1(=O)=O ; cells: E6SM ; strain: McIntyre ; measure: EC50 ; value: >400 µg/mL
Cc1c(NC(=O)OC(C)(C)C)ccc2nc(N3CCC[C@H]3C(=O)NCc3ccncc3)oc(=O)c12 ; cells: VERO ; measure: EC90 ; read by: plaque count ; value: >12.5 µM
C/C(O)=C1\C(=N)N(COCCO)S(=O)(=O)N=C1N ; cells: E6SM ; strain: F ; measure: EC50 ; value: >400 µg/mL
O=c1[nH]c(=O)n([C@H]2C[C@H](O)[C@@H](CO)O2)cc1I ; cells: PRK ; strain: B2006 (TK-) ; measure: EC99 ; read by: virus yield ; value: >100 µg/mL
CCN(C(=O)N(C)CCc1cccnc1)c1nc2ccc(NC(=O)OC(C)(C)C)c(C)c2c(=O)o1 ; cells: VERO ; measure: EC90 ; read by: plaque count ; value: 7.6 µM

The last 2 rows once more:

compound,tested at,cells,strain,measure,read by,value
O=c1[nH]c(=O)n([C@H]2C[C@H](O)[C@@H](CO)O2)cc1I,-,PRK,B2006 (TK-),EC99,virus yield,>100 µg/mL
CCN(C(=O)N(C)CCc1cccnc1)c1nc2ccc(NC(=O)OC(C)(C)C)c(C)c2c(=O)o1,-,VERO,-,EC90,plaque count,7.6 µM

Blank or dashed fields: not listed here. Inhibition is in % at the dose shown (toxicity tests: loss of growth or viability). ECn is the concentration giving n% inhibition of infection, replication or growth.